## PSTVd stem 3 mutant pool in Nicotiana benthamiana

Region: stem 3 of PSTVd (intermediate strain), upper and lower strand joined, each 5' to 3', the first 8 letters being the upper strand. Wild type: GUGGUUCCGGAACCGC. Varied positions (N): GUGGUUCCGNANNCNN.

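Three N. benthamiana plants were inoculated with the whole mutant pool. Samples came from the inoculated region at 5 days, the leaf margin at 10 and upper systemic leaves at 12.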

Numbers give reads per thousand; 0 = not seen among the reads, higher = more abundant.
Each site shows the three plants.
"Pool" is the share in the plasmid pool used as inoculum, on the same scale.
The inoculated region was read from the minus strand, the other sites from the plus strand.
IR is the inoculated region, LM the leaf margin, Sys the systemic leaves.

{"sequence": "GUGGUUCCGCAAGCUA", "pool": "0.754", "IR": "0.373 / 0.237 / 0.189", "LM": "0.0283 / 0.0318 / 0", "Sys": "0 / 0 / 0"}
{"sequence": "GUGGUUCCGCAAGCUC", "pool": "0.631", "IR": "0.400 / 0.453 / 0.0540", "LM": "0 / 0.0318 / 0", "Sys": "0 / 0 / 0"}
{"sequence": "GUGGUUCCGCAAGCUG", "pool": "1.34", "IR": "0.426 / 0.561 / 0.622", "LM": "0 / 0 / 0.0722", "Sys": "0 / 0 / 0"}
{"sequence": "GUGGUUCCGCAAGCUU", "pool": "0.831", "IR": "0.533 / 0.410 / 0.216", "LM": "0 / 0.0318 / 0", "Sys": "0 / 0 / 0"}
{"sequence": "GUGGUUCCGCAAUCAA", "pool": "1.69", "IR": "0.773 / 0.798 / 0.730", "LM": "0.0283 / 0 / 0", "Sys": "0.335 / 0 / 0"}
{"sequence": "GUGGUUCCGCAAUCAC", "pool": "0.739", "IR": "0.720 / 0.733 / 0.730", "LM": "0 / 0 / 0.361", "Sys": "0 / 0 / 0"}
{"sequence": "GUGGUUCCGCAAUCAG", "pool": "0.985", "IR": "0.560 / 0.668 / 0.649", "LM": "0 / 1.05 / 0.325", "Sys": "0 / 0 / 0"}
{"sequence": "GUGGUUCCGCAAUCAU", "pool": "1.52", "IR": "1.95 / 1.64 / 2.41", "LM": "1.78 / 0.891 / 0.542", "Sys": "1.27 / 0.977 / 0.900"}
{"sequence": "GUGGUUCCGCAAUCCA", "pool": "0.877", "IR": "0.187 / 0.367 / 0.270", "LM": "0 / 0.0318 / 0", "Sys": "0 / 0 / 0"}
{"sequence": "GUGGUUCCGCAAUCCC", "pool": "1.11", "IR": "0.746 / 0.755 / 0.676", "LM": "0 / 0 / 0", "Sys": "0.0559 / 0 / 0.0730"}
{"sequence": "GUGGUUCCGCAAUCCG", "pool": "0.985", "IR": "0.267 / 0.0863 / 0.378", "LM": "0 / 0.0318 / 0.0361", "Sys": "0 / 0 / 0"}
{"sequence": "GUGGUUCCGCAAUCCU", "pool": "0.970", "IR": "0.880 / 0.841 / 0.784", "LM": "0.0283 / 1.59 / 0.217", "Sys": "0 / 0 / 0"}
{"sequence": "GUGGUUCCGCAAUCGA", "pool": "1.34", "IR": "0.986 / 0.884 / 0.973", "LM": "0.340 / 0 / 0.289", "Sys": "0.130 / 0.0184 / 0"}
{"sequence": "GUGGUUCCGCAAUCGC", "pool": "0.877", "IR": "0.320 / 0.431 / 0.459", "LM": "0 / 0.0318 / 0", "Sys": "0 / 0 / 0"}
{"sequence": "GUGGUUCCGCAAUCGG", "pool": "0.816", "IR": "0.320 / 0.367 / 0.297", "LM": "0.0283 / 0 / 0", "Sys": "0 / 0 / 0"}
{"sequence": "GUGGUUCCGCAAUCGU", "pool": "0.846", "IR": "0.693 / 0.604 / 0.784", "LM": "0 / 0 / 0", "Sys": "0 / 0 / 0"}
{"sequence": "GUGGUUCCGCAAUCUA", "pool": "0.923", "IR": "0.480 / 0.367 / 0.270", "LM": "0 / 0.0318 / 0", "Sys": "0 / 0 / 0"}
{"sequence": "GUGGUUCCGCAAUCUC", "pool": "0.754", "IR": "0.240 / 0.388 / 0.270", "LM": "0 / 0 / 0.0361", "Sys": "0 / 0 / 0"}
{"sequence": "GUGGUUCCGCAAUCUG", "pool": "0.708", "IR": "0.426 / 0.345 / 0.405", "LM": "0 / 0 / 0.0722", "Sys": "0 / 0 / 0"}
{"sequence": "GUGGUUCCGCAAUCUU", "pool": "0.723", "IR": "0.746 / 0.776 / 0.757", "LM": "0 / 0.0318 / 0.325", "Sys": "0 / 0 / 0"}
{"sequence": "GUGGUUCCGCACACAA", "pool": "1.59", "IR": "0.826 / 0.625 / 0.486", "LM": "0 / 0 / 0.0361", "Sys": "0.186 / 0 / 0"}
{"sequence": "GUGGUUCCGCACACAC", "pool": "1.02", "IR": "0.320 / 0.302 / 0.216", "LM": "0.0567 / 0.0636 / 0", "Sys": "0 / 0 / 0"}
{"sequence": "GUGGUUCCGCACACAG", "pool": "0.708", "IR": "0.426 / 0.474 / 0.108", "LM": "0 / 0.0318 / 0", "Sys": "0 / 0 / 0"}
{"sequence": "GUGGUUCCGCACACAU", "pool": "0.908", "IR": "0.693 / 0.863 / 0.784", "LM": "0 / 0.0318 / 0.0361", "Sys": "0 / 0 / 0"}
{"sequence": "GUGGUUCCGCACACCA", "pool": "0.754", "IR": "0.267 / 0.474 / 0.189", "LM": "0.0283 / 0 / 0", "Sys": "0 / 0 / 0"}
{"sequence": "GUGGUUCCGCACACCC", "pool": "0.877", "IR": "0.320 / 0.323 / 0.324", "LM": "0.0283 / 0 / 0.0361", "Sys": "0 / 0 / 0"}
{"sequence": "GUGGUUCCGCACACCG", "pool": "0.631", "IR": "0.293 / 0.280 / 0.162", "LM": "0 / 0 / 0.0361", "Sys": "0 / 0 / 0"}
{"sequence": "GUGGUUCCGCACACCU", "pool": "1.15", "IR": "0.533 / 0.518 / 0.324", "LM": "0.0283 / 0 / 0", "Sys": "0 / 0 / 0"}
{"sequence": "GUGGUUCCGCACACGA", "pool": "0.800", "IR": "0.373 / 0.453 / 0.243", "LM": "0 / 0.0954 / 0", "Sys": "0 / 0 / 0"}
{"sequence": "GUGGUUCCGCACACGC", "pool": "0.554", "IR": "0.267 / 0.367 / 0.243", "LM": "0 / 0.0318 / 0", "Sys": "0 / 0 / 0"}
{"sequence": "GUGGUUCCGCACACGG", "pool": "0.708", "IR": "0.293 / 0.410 / 0.243", "LM": "0 / 0.0318 / 0.108", "Sys": "0 / 0 / 0"}
{"sequence": "GUGGUUCCGCACACGU", "pool": "0.831", "IR": "0.213 / 0.323 / 0.270", "LM": "0 / 0.0954 / 0", "Sys": "0 / 0 / 0"}
{"sequence": "GUGGUUCCGCACACUA", "pool": "1.05", "IR": "0.293 / 0.367 / 0.189", "LM": "0 / 0 / 0", "Sys": "0 / 0 / 0"}
{"sequence": "GUGGUUCCGCACACUC", "pool": "0.800", "IR": "0.293 / 0.259 / 0.216", "LM": "0.0283 / 0.0318 / 0", "Sys": "0 / 0 / 0"}
{"sequence": "GUGGUUCCGCACACUG", "pool": "0.693", "IR": "0.453 / 0.280 / 0.351", "LM": "0 / 0 / 0.0361", "Sys": "0 / 0 / 0"}
{"sequence": "GUGGUUCCGCACACUU", "pool": "0.800", "IR": "0.213 / 0.453 / 0.270", "LM": "0.0283 / 0 / 0", "Sys": "0 / 0 / 0"}

Excerpt, the final 4 entries:

{"sequence": "GUGGUUCCGCACACUA", "pool": "1.05", "IR": "0.293 / 0.367 / 0.189", "LM": "0 / 0 / 0", "Sys": "0 / 0 / 0"}
{"sequence": "GUGGUUCCGCACACUC", "pool": "0.800", "IR": "0.293 / 0.259 / 0.216", "LM": "0.0283 / 0.0318 / 0", "Sys": "0 / 0 / 0"}
{"sequence": "GUGGUUCCGCACACUG", "pool": "0.693", "IR": "0.453 / 0.280 / 0.351", "LM": "0 / 0 / 0.0361", "Sys": "0 / 0 / 0"}
{"sequence": "GUGGUUCCGCACACUU", "pool": "0.800", "IR": "0.213 / 0.453 / 0.270", "LM": "0.0283 / 0 / 0", "Sys": "0 / 0 / 0"}

Wild type was 17.3 per thousand in the pool and the most common sequence in every sample (inoculated region 330, 345, 235; leaf margin 794, 766, 816; systemic leaves 830, 792, 869).
Sequences that differ at fixed positions probably stem from PCR or sequencing errors, and defective variants can be carried along by functional ones.
Samples held 27,691 to 54,225 reads, so the smallest values rest on one or two reads.

The measurements come from Wu et al. 2024 (doi:10.1371/journal.ppat.1012142).